Assay results: PubChem BioAssay AID588549 (Broad Institute, 2011)
Only a part is listed here, and it is no random draw. Calls of active or inactive are those of the source. No stated cut-off is given here; in the data, active means inhibition above about 8.5% (passing the limit was not always enough); inconclusive means no clear call, values can overlap the other calls.

The molecules below were run on Mycobacterium tuberculosis FadD28 fatty-acid-AMP ligase (assay: inhibitors of FadD28 bisubstrate probe binding, primary screen, biochemical, fluorescence polarization, single point (AID 588549)). Settings: at 12.5 µM, active compounds read high.
`C[C@H]1OP(=O)(Oc2ccccc2)C[C@@H]2O[C@@H]21` (some centres undefined) was tested, and the inhibition was inactive: -1.82%. In the case of `Cc1ccccc1CN(C)C(=O)COC(=O)C(O)(c1ccccc1)c1ccccc1`, the inhibition is reported as inactive: -2.72%. With `CC(=O)Nc1ccc(Oc2c([N+](=O)[O-])cc([N+](=O)[O-])cc2[N+](=O)[O-])cc1` the inhibition was inactive: -1.04%. In the case of `CC(=O)Nc1ccc([As](=O)(O)O)c(O)c1`, the inhibition is reported as inactive: -1.31%. `CC(C)C(=O)NC(Sc1ccccc1)C(Cl)(Cl)Cl` (centres undefined) was tested, and the inhibition was inactive: -2.26%. `O=P(Nc1nccs1)(c1ccccc1)c1ccccc1` was tested, and the inhibition was inactive: -4.64%. `c1nnnn1CCn1cnnn1` was tested, and the inhibition was inactive: -0.799%. In the case of `Nc1ccc(CCCCOc2ccccc2)cc1`, the inhibition is reported as inactive: 0.772%. In the case of `COc1ccc(N)c([N+](=O)[O-])c1[N+](=O)[O-]`, the inhibition is reported as inactive: -1.13%. `O=P(Nc1ccccn1)(c1ccc(Br)cc1)c1ccc(Br)cc1` was tested, and the inhibition was inactive: 0.351%. With `C[C@H]1OP(=O)(Oc2ccccc2)[C@H](O)[C@H](O)[C@H]1N=[N+]=[N-]` (some centres undefined) the inhibition was inactive: -3.13%. With `O=P(Nc1nc2ccccc2s1)(c1ccccc1)c1ccccc1` the inhibition was inactive: -3.64%. For `O=[N+]([O-])c1ccc(O)c(/C=N/Nc2ccc([N+](=O)[O-])cc2[N+](=O)[O-])c1`, the inhibition was inactive: 0.563%. In the case of `CC(=O)NC(SC(=S)N(C)C)C(Cl)(Cl)Cl` (centres undefined), the inhibition is reported as inactive: -1.43%. With `O=[N+]([O-])c1ncn(CCn2cnc([N+](=O)[O-])n2)n1` the inhibition was inactive: -1.4%. `O=[As](O)(c1ccccc1)c1ccc(O)cc1` was tested, and the inhibition was inactive: 1.75%. In the case of `Nc1ccc([As](=O)(O)c2ccc([N+](=O)[O-])cc2)cc1`, the inhibition is reported as inactive: -0.938%. For `C(Cc1nn[nH]n1)Cc1nn[nH]n1`, the inhibition was inactive: 0.673%. `O=C(OC1CN2CCC1CC2)c1cccc(Cl)c1` (centres undefined) was tested, and the inhibition was inactive: -2.44%. `CC1CCC(C(C)C)C(OP(=O)(Nc2ccccn2)c2ccccc2)C1` (centres undefined) was tested, and the inhibition was inactive: -1.2%. With `Cc1ccc(C(=O)OC2CN3CCC2CC3)cc1` (centres undefined) the inhibition was inactive: 0.398%. For `Cc1nn(-c2ccccc2)c2c1P(=O)(N1CCOCC1)N(C)C(c1ccccc1)=N2` (centres undefined), the inhibition was inactive: 0.401%. `CCCC1OP(=O)(Nc2ccccc2)OCC1CC` (centres undefined) was tested, and the inhibition was inactive: -1.87%. With `O=C(/C=C/c1ccccc1)OC1CN2CCC1CC2` (centres undefined) the inhibition was inactive: -3.8%. In the case of `CN(C)C1(CNC(=O)c2ccc(S(C)(=O)=O)cc2)CCCCC1`, the inhibition is reported as inactive: 0.896%. `O=P1(Nc2ncccn2)COc2ccccc2OC1` was tested, and the inhibition was inactive: -1.4%. In the case of `Cc1ccc(S(=O)(=O)N(CCCN)CCCc2c(C)nc(N)[nH]c2=O)cc1`, the inhibition is reported as inactive: -0.321%. `O=P1(Nc2ccc(Br)cn2)COc2ccccc2OC1` was tested, and the inhibition was inactive: -5.37%. In the case of `NS(=O)(=O)c1cccc(NC(=O)COC(=O)C(O)(c2ccccc2)c2ccccc2)c1`, the inhibition is reported as inactive: -4.2%. In the case of `Cc1ccc(OCC(=O)OC2CN3CCC2CC3)cc1` (centres undefined), the inhibition is reported as inactive: -1.69%. `O=[As](O)(c1cccs1)c1cccs1` was tested, and the inhibition was inactive: -0.698%. With `Nc1cccc([As](=O)(O)c2ccccc2)c1` the inhibition was inactive: -2.34%. `CN(CCCl)Cc1cc(Cl)c(NC2=NCCN2)c(Cl)c1` was tested, and the inhibition was inactive: -3.86%. In the case of `CCOP(=O)(Nc1ccc(C)cn1)OCC`, the inhibition is reported as inactive: 1.43%. With `CCOP(=O)(NC(=NC(C)c1ccccc1)NC(C)c1ccccc1)OCC` (centres undefined) the inhibition was inactive: -0.106%. `O=P1(Nc2ccccn2)COc2ccccc2OC1` was tested, and the inhibition was inactive: -2.15%. In the case of `CCC1=CC2Cc3nc4ccc(Cl)cc4c(N)c3C(C1)C2` (centres undefined), the inhibition is reported as inactive: -8.55%. In the case of `CC(C)(C)C(=O)NC(Sc1ncccn1)C(Cl)(Cl)Cl` (centres undefined), the inhibition is reported as inactive: -5.16%. With `O=P1(N(CCCl)CCCl)NCCC(C(F)(F)F)O1` (centres undefined) the inhibition was inactive: -2.96%. With `Clc1n[nH]nc1-c1nn[nH][15n]1` the inhibition was inactive: 0.0055%. With `COc1ccccc1CNC(=O)COC(=O)C(O)(c1ccccc1)c1ccccc1` the inhibition was inactive: -4.91%. `CC1(CBr)Cn2c(nc3ccccc3c2=O)S1` (centres undefined) was tested, and the inhibition was inactive: -4.89%. `CC(C)/C=N\N=C(\N)N[N+](=O)[O-]` was tested, and the inhibition was inactive: -0.982%. For `CN(C(=O)Cc1ccc(Cl)c(Cl)c1)[C@@H]1CCCC[C@H]1N1CCCC1`, the inhibition was inactive: -0.608%. For `CS(=O)(=O)c1ccc(Cl)c(NC(=O)COC(=O)C(O)(c2ccccc2)c2ccccc2)c1`, the inhibition was inactive: -4.74%. In the case of `COc1cc(C(=O)NCC2(N3CCOCC3)CCCCC2)cc(Cl)c1OC(C)C`, the inhibition is reported as inactive: -5.08%. `O=[As](O)(O)c1cccnc1` was tested, and the inhibition was inactive: -3.12%. For `O=C(OC1CN2CCC1CC2)c1ccc(Cl)cc1` (centres undefined), the inhibition was inactive: 0.316%. `O=[As](O)(c1cccc(O)c1)c1cccc(O)c1` was tested, and the inhibition was inactive: 0.09%. With `Cc1cccc(OCC(=O)OC2CN3CCC2CC3)c1` (centres undefined) the inhibition was inactive: -2.21%. In the case of `CCCOP(=S)(Nc1nc(N)cc(=O)[nH]1)OCCC`, the inhibition is reported as inactive: -3.84%. With `Cc1ccc(NCCc2c([N+](=O)[O-])cc([N+](=O)[O-])cc2[N+](=O)[O-])cc1` the inhibition was inactive: 2.07%. `Nc1cccc2c([As](=O)(O)O)cccc12` was tested, and the inhibition was active: 8.55%. In the case of `CCOP(=O)(Nc1cccc2ccccc12)OCC`, the inhibition is reported as inactive: -0.797%. In the case of `COc1cc(C2NCCC3(OCCO3)C2(C)C)cc(OC)c1OC` (centres undefined), the inhibition is reported as inactive: 0.247%. `CS(=O)(=O)c1cc([N+](=O)[O-])c2no[n+]([O-])c2c1` was tested, and the inhibition was inactive: -3.27%. In the case of `O=P(Nc1nccs1)(c1ccccc1)c1nc2ccccc2s1` (centres undefined), the inhibition is reported as inactive: -4.25%. In the case of `O=P(Nc1nccs1)(Oc1ccccc1)Oc1ccccc1`, the inhibition is reported as inactive: -1.07%. `CCOP1(=S)c2c(C)nn(CCC#N)c2N=C(c2ccccc2F)N1C` (centres undefined) was tested, and the inhibition was inactive: -2.39%. `Nc1ccccc1[As](=O)(O)c1ccccc1` was tested, and the inhibition was inactive: 0.485%. For `O=C(O)COc1ccc([As](=O)(O)O)cc1[N+](=O)[O-]`, the inhibition was inactive: -1.68%. With `NC(=O)Nc1ccc([As](=O)(O)O)cc1` the inhibition was inactive: -2.33%. For `CN(C(=O)Cc1ccc(Cl)c(Cl)c1)[C@H]1CC[C@@]2(CCCO2)C[C@@H]1N1CCCC1`, the inhibition was inactive: -2.86%. With `CN(C)C(=O)c1cc([N+](=O)[O-])cc2c1-c1c(cc([N+](=O)[O-])cc1[N+](=O)[O-])C2=O` the inhibition was inactive: -3.68%.
